Results reported in publication PMC10304930 (Molecules, 2023).

Legend:
[1] = target: the molecule itself; test: SEC; […]; 40 mM Tris-HCl, 100 mM NaCl, 1 mM DTT, pH 8.0; 0.5 mL/min; […]
[2] = target: the molecule itself; test: cell-based or functional assay

B1: tagged main protease from SARS-CoV-2 with N-terminal Met-Ala-Ser and C-terminal Leu-Glu-6×His (enzyme)
chain: not shown
stoichiometry N [1]: 2
kcat/Km, FRET-based cleavage assay (Dabcyl/Edans peptide substrate) [2]: 67.5 M⁻¹ s⁻¹
